Pooled drug test results. Numbers come from NIAID ChemDB, via PubChem.

Common to all: whole-cell or culture tests; agent: Coxsackie virus; measure: EC50

Lines come from different laboratories, so protocols vary. ECn is the concentration giving n% inhibition of infection, replication or growth. An empty or dashed field is not shown. Two numbers with a dash give a range or band.

CC(=O)OCCOCN1C(N)=CC(N)=NS1(=O)=O ; strain: TYPE B4 ; cell line: HeLa ; result: >400 µg/mL
CC1(CO)CCC(Cn2nnc3c(Cl)nc(N)nc32)C1(C)C ; method: cytopathic effect ; strain: TYPE B4 ; cell line: VERO ; result: >100 µg/mL
Cc1cnnc(CCCOc2cc(C)c(-c3noc(C)n3)c(C)c2)c1 ; method: cytopathic effect ; cell line: HeLa ; result: 0.033–0.659 µg/mL
CC1(C)[C@@H](CCO)C[C@H]1n1nnc2c(=O)[nH]cnc21 ; method: cytopathic effect ; strain: TYPE B4 ; cell line: HeLa ; result: >200 µg/mL
CCOC(=O)CSc1nnc(-c2cn(-c3ccccc3)nc2-c2ccccc2)n1N ; method: cytopathic effect ; strain: TYPE B4 ; cell line: HeLa ; result: >16 µg/mL
O=c1ccn([C@@H]2O[C@H](CO)[C@](O)(C(F)(F)F)[C@H]2O)c(=O)[nH]1 ; method: cytopathic effect ; strain: B4 ; cell line: VERO ; result: >400 µg/mL
OC[C@H]1O[C@@H](c2cncc(Br)c2)[C@@H](O)[C@@H]1O ; method: cytopathic effect ; strain: TYPE B4 ; cell line: HeLa ; result: ≥100 µg/mL
Nc1ncnc2c1ncn2[C@@H]1C=C(CCl)[C@@H](O)[C@H]1O ; method: cytopathic effect ; strain: TYPE B4 ; cell line: HeLa ; result: >40 µg/mL
Cc1ccc(C(=O)CCCCOc2ccc(C3=NCC(C)O3)cc2Cl)s1 ; method: cytopathic effect ; strain: TYPE B2 ; cell line: VERO ; result: 4.51 µM
Cc1nc(-c2cc(C)c(OCCCc3ccc(C=O)o3)c(C)c2)no1 ; method: cytopathic effect ; cell line: HeLa ; result: 0.033–0.659 µg/mL
CSc1ncnc2c1cnn2Cc1cn(CCCCO)nn1 ; strain: B4 ; cell line: HeLa ; result: >400 µg/mL
Cc1ccc(C(=O)CCCCOc2ccc(C3=NCC(C)O3)cc2)s1 ; method: cytopathic effect ; strain: TYPE B5 ; cell line: VERO ; result: >28.01 µM
OCCCCn1cc(Cn2ncc3c(SCc4ccccc4)ncnc32)nn1 ; strain: B4 ; cell line: VERO ; result: >400 µg/mL
CC1(C)[C@@H](CO)CC[C@@]1(C)Cn1nnc2c(N)ncnc21 ; method: cytopathic effect ; strain: TYPE B4 ; cell line: HeLa ; result: >400 µg/mL
Cc1cc(OCCCc2ccc(C=O)nn2)cc(C)c1-c1noc(C(F)F)n1 ; method: cytopathic effect ; cell line: HeLa ; result: 0.033–0.659 µg/mL
O=c1[nH]cnc2c1cnn2Cc1cn(CCCCO)nn1 ; strain: B4 ; cell line: VERO ; result: >400 µg/mL
OC[C@H]1O[C@H](c2cncc(Br)c2)[C@@H](O)[C@@H]1O ; method: cytopathic effect ; strain: TYPE B4 ; cell line: VERO ; result: ≥100 µg/mL
CC1(C)[C@@H](CO)CC[C@@]1(C)Cn1cnc2c(N)ncnc21 ; method: cytopathic effect ; strain: TYPE B4 ; cell line: VERO ; result: >400 µg/mL
CCC1COC(c2ccc(OCCCCC(=O)c3ccc(C)s3)cc2)=N1 ; method: cytopathic effect ; strain: TYPE B2 ; cell line: VERO ; result: 5.93 µM
CC1(C)[C@@H](CCO)C[C@H]1n1nnc2c(N)nc(N)nc21 ; method: cytopathic effect ; strain: TYPE B4 ; cell line: HeLa ; result: 200 µg/mL
CCOC(=O)Sc1nnc(-c2cn(-c3ccccc3)nc2-c2ccccc2)n1N ; method: cytopathic effect ; strain: TYPE B4 ; cell line: VERO ; result: >80 µg/mL
Cc1ccc(CCCOc2c(C)cc(-c3nnn(C)n3)cc2C)nn1 ; method: cytopathic effect ; cell line: HeLa ; result: 0.033–0.659 µg/mL
O=c1[nH]n2c(-c3cn(-c4ccccc4)nc3-c3ccccc3)nnc2sc1=O ; method: cytopathic effect ; strain: TYPE B4 ; cell line: VERO ; result: >80 µg/mL
Cc1cc(OCCCc2ccc(C(F)(F)F)nn2)cc(C)c1-c1noc(C(F)F)n1 ; method: cytopathic effect ; cell line: HeLa ; result: 0.033–0.659 µg/mL
NC1=Nn2c(nnc2-c2cn(-c3ccccc3)nc2-c2ccccc2)SC1 ; method: cytopathic effect ; strain: TYPE B4 ; cell line: HeLa ; result: >16 µg/mL
CCCc1ccc(CCCOc2ccc(-c3noc(C4CC4)n3)c(C)c2)nn1 ; method: cytopathic effect ; cell line: HeLa ; result: 0.033–0.659 µg/mL
CCOC(=O)C1=CN(COCCO)S(=O)(=O)NC1=O ; strain: TYPE B4 ; cell line: VERO ; result: >400 µg/mL
CS(=O)(=O)c1ccc(Oc2ccc(C(=O)c3ccccc3)cc2)nc1 ; method: cytopathic effect ; strain: A-9 ; cell line: MRC-5 ; result: 0.3 µg/mL
CCOC(=O)C1Sc2nnc(-c3cn(-c4ccccc4)nc3-c3ccccc3)n2NC1=O ; method: cytopathic effect ; strain: TYPE B4 ; cell line: VERO ; result: >16 µg/mL
CC1(C)[C@@H](CCO)C[C@H]1n1nnc2c(=O)[nH]c(N)nc21 ; method: cytopathic effect ; strain: TYPE B4 ; cell line: VERO ; result: >400 µg/mL
CC1(CO)CCC(Cn2nnc3c(=O)[nH]c(N)nc32)C1(C)C ; method: cytopathic effect ; strain: TYPE B4 ; cell line: VERO ; result: >200 µg/mL
CC1(C)[C@@H](CCO)C[C@H]1n1nnc2c(Cl)nc(N)nc21 ; method: cytopathic effect ; strain: TYPE B4 ; cell line: VERO ; result: >200 µg/mL
CC1(CO)CCC(Cn2cnc3c(=O)[nH]c(N)nc32)C1(C)C ; method: cytopathic effect ; strain: TYPE B4 ; cell line: VERO ; result: >400 µg/mL
C=CC1=C[C@@H](n2cnc3c(N)ncnc32)[C@H](O)[C@@H]1O ; method: cytopathic effect ; strain: TYPE B4 ; cell line: VERO ; result: >200 µg/mL
Cc1ccc(C(=O)CCCCCCOc2ccc(C3=NCCO3)cc2)s1 ; method: cytopathic effect ; strain: TYPE B5 ; cell line: VERO ; result: >26.95 µM
OC[C@H]1O[C@H](c2cncc(Br)c2)[C@@H](O)[C@H]1O ; method: cytopathic effect ; strain: TYPE B4 ; cell line: HeLa ; result: ≥100 µg/mL
Cc1ccc(C(=O)CCCCCCOc2ccc(C3=N[C@H](C)CO3)cc2)s1 ; method: cytopathic effect ; strain: TYPE B2 ; cell line: VERO ; result: >25.97 µM
CC(=O)OCCOCN1C=CC(=O)N(COCCO)S1(=O)=O ; strain: TYPE B4 ; cell line: VERO ; result: >400 µg/mL
COCC1=C[C@@H](n2cnc3c(N)ncnc32)[C@H](O)[C@@H]1O ; method: cytopathic effect ; strain: TYPE B4 ; cell line: HeLa ; result: >200 µg/mL
Cc1ccc(CCCOc2c(C)cc(C#N)cc2C)o1 ; method: cytopathic effect ; cell line: HeLa ; result: 0.033–0.659 µg/mL
CC1=Nn2c(nnc2-c2cn(-c3ccccc3)nc2-c2ccccc2)SC1 ; method: cytopathic effect ; strain: TYPE B4 ; cell line: VERO ; result: >16 µg/mL
Cc1ccc(C(=O)CCCCOc2ccc(C3=N[C@@H](C)CO3)cc2)s1 ; method: cytopathic effect ; strain: TYPE B5 ; cell line: VERO ; result: 22.24 µM
c1ccc(-c2nn3c(-c4cn(-c5ccccc5)nc4-c4ccccc4)nnc3s2)cc1 ; method: cytopathic effect ; strain: TYPE B4 ; cell line: HeLa ; result: >3.2 µg/mL
Nc1ncnc2c1ncn2[C@@H]1O[C@H](CO)[C@](O)(C(F)(F)F)[C@H]1O ; method: cytopathic effect ; strain: B4 ; cell line: VERO ; result: >200 µg/mL
NC(=O)c1cncc([C@@H]2O[C@H](CO)[C@@H](O)[C@@H]2O)c1 ; method: cytopathic effect ; strain: TYPE B4 ; cell line: VERO ; result: ≥100 µg/mL
C/C(O)=C1\C(=N)N(COCCO)S(=O)(=O)N=C1N ; strain: TYPE B4 ; cell line: HeLa ; result: >400 µg/mL
OC[C@H]1O[C@@H](c2cncc(Br)c2)[C@@H](O)[C@H]1O ; method: cytopathic effect ; strain: TYPE B4 ; cell line: VERO ; result: ≥100 µg/mL
CNc1ncnc2c1cnn2Cc1cn(CCCCO)nn1 ; strain: B4 ; cell line: HeLa ; result: >400 µg/mL
Cc1cc(CCCCCOc2c(Cl)cc(C3=NCCO3)cc2Cl)on1 ; method: plaque count ; strain: B4 ; cell line: RD-2 ; result: 0.02 µg/mL
Cc1cc(OCCCc2ccc(CO)nn2)cc(C)c1-c1noc(C(F)(F)F)n1 ; method: cytopathic effect ; cell line: HeLa ; result: 0.033–0.659 µg/mL
CC(=O)OCCOCN1C=CC(=O)NS1(=O)=O ; strain: TYPE B4 ; cell line: HeLa ; result: >400 µg/mL
CC(=O)Nn1c(-c2cn(-c3ccccc3)nc2-c2ccccc2)n[nH]c1=S ; method: cytopathic effect ; strain: TYPE B4 ; cell line: VERO ; result: >80 µg/mL
CC(=O)OCCOCN1C=CC(=O)N(COCCOC(C)=O)S1(=O)=O ; strain: TYPE B4 ; cell line: VERO ; result: >400 µg/mL
CC1(C)[C@@H](CO)CC[C@@]1(C)Cn1nnc2c(Cl)ncnc21 ; method: cytopathic effect ; strain: TYPE B4 ; cell line: VERO ; result: >400 µg/mL

7 of the rows above, restated:

| SMILES | method | strain | cell line | result |
|---|---|---|---|---|
| CC1(C)[C@@H](CCO)C[C@H]1n1nnc2c(N)nc(N)nc21 | cytopathic effect | TYPE B4 | HeLa | 200 µg/mL |
| NC1=Nn2c(nnc2-c2cn(-c3ccccc3)nc2-c2ccccc2)SC1 | cytopathic effect | TYPE B4 | HeLa | >16 µg/mL |
| CC1(CO)CCC(Cn2nnc3c(Cl)nc(N)nc32)C1(C)C | cytopathic effect | TYPE B4 | VERO | >100 µg/mL |
| CC(=O)OCCOCN1C(N)=CC(N)=NS1(=O)=O |  | TYPE B4 | HeLa | >400 µg/mL |
| CNc1ncnc2c1cnn2Cc1cn(CCCCO)nn1 |  | B4 | HeLa | >400 µg/mL |
| OC[C@H]1O[C@H](c2cncc(Br)c2)[C@@H](O)[C@@H]1O | cytopathic effect | TYPE B4 | VERO | ≥100 µg/mL |
| CC1(CO)CCC(Cn2cnc3c(=O)[nH]c(N)nc32)C1(C)C | cytopathic effect | TYPE B4 | VERO | >400 µg/mL |